# Test results reported in PubChem BioAssay AID1258 (University of Pittsburgh Molecular Library Screening Center, 2008).
# This is a selection; strong and weak results do not stand in their true shares. Active and inactive are the calls of the source.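 The calls were made as follows: active = inhibition above about 50% in both repeat tests (limit read from the data); inconclusive = one repeat under the set limit, the other over it; inactive = both repeats under the set limit.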
# Assay: Leishmania major promastigote growth inhibition, confirmation, 1 µM repeat of primary hits (AID 1258)
# Details: L. major promastigote growth, resazurin fluorescence, 48 h; at 1 µM; active compounds read high
# In short: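 Material: Leishmania major promastigote parasites / Medium: M199, 10% heat-inactivated FBS / Timing: 44 h compound exposure plus 4 h dye step, both 28 °C / Evaluation: parasite viability inhibition versus plate controls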
row,Structure (SMILES),inhibition
1,O=C(OC1CN2CCC1CC2)C1c2ccccc2C=Cc2ccccc21 (stereo unspecified),inactive: 2.79%
